Compound potency records, mixed from different reports. Data source: NIAID ChemDB in PubChem.

Common to all: growth or infection tests; organism: Mycobacterium tuberculosis

Blank or dashed fields: not listed here. Inhibition is in % at the dose shown (toxicity tests: loss of growth or viability). For "inactive" no cut-off is given. A number after MIC or MFC names an inhibition level or a share of isolates. MIC bound: limit read from a one-dose screen. Conditions beyond the fields shown may differ between rows. ECn is the concentration giving n% inhibition of infection, replication or growth.

structure	dose	method	read-out	changes	setting	strain	result
CCCCOc1ccc(N2C(=O)CC(Nc3ccc(Oc4ccc(Cl)cc4)c(Cl)c3)C2=O)cc1			MIC			H37Rv	100 µg/mL
O=S(=O)(Nc1cc(Cl)c(NS(=O)(=O)c2ccccc2)c(S(=O)(=O)c2ccccc2)c1Cl)c1ccccc1		BACTEC	MIC			H37Rv	≥12.5 µg/mL
CCCCCCCCCCCCCC(=O)OC1(C)c2ccccc2-c2c1c(-n1ccnc1)nc1ccc(Br)cc21		resazurin	MIC90			H37Rv	>6.25 µg/mL
Cc1cccc(-c2nc3cc(C(C)(C)C)cc(C(C)(C)C)c3o2)c1	6.25 µg/mL	BACTEC	inhibition			H37Rv	<90%
CNP1(NC)=NP(NC)(NC)=NP(c2ccccc2)(c2ccccc2)=N1		BACTEC	MIC			H37Rv	≥128 µg/mL
Nc1ccc(-c2nnc(NCc3ccccc3)s2)cc1	6.25 µg/mL	BACTEC	inhibition			H37Rv	37%
CN[C@H]1Cc2c[nH]c3cccc(c23)[C@]12C=C(C)C(=O)O2	12.8 µg/mL	BACTEC	inhibition			H37Rv	0%
Cc1ncc(-c2c[nH]c3ccccc23)o1		GFP	MIC			H37Ra	25 µg/mL
S=C(Nc1ccccc1)Nc1ccc(-c2nnc(NC3CCCCC3)s2)cc1	6.25 µg/mL	BACTEC	inhibition			H37Rv	67%
[N-]=[N+]=NCCCCCCN1C(=O)C2(OCCO2)c2cc(Cl)ccc21			MIC99			MC2 6230	>286 µM
CCCNc1nc2c(s1)c1c(O)c3c(O)c(C)c4c(c32)C(=O)[C@@](C)(O/C=C/[C@H](OC)[C@@H](C)[C@@H](OC(C)=O)[C@H](C)[C@H](O)[C@H](C)[C@@H](O)[C@@H](C)/C=C/C=C(/C)C(=O)N1)O4		resazurin	MIC bound			H37Rv	<6.25 µg/mL
CC(=O)/C(N=Nc1ccc(-c2nnc(Nc3ccc(C)cc3)s2)cc1)=C(\C)O	6.25 µg/mL	BACTEC	inhibition			H37Rv	0%
NC(=O)c1cncc(-n2cncn2)n1			MIC			H37Rv	1000 µg/mL
CCOc1ccc2c(c1)[n+]([O-])c(S(=O)(=O)c1ccc(C)cc1)c(N)[n+]2[O-]			MIC			KM-R	>12.5 µg/mL
CC(C)(C)c1cc(C(C)(C)C)c2oc(-c3cccc(Br)c3)nc2c1	6.25 µg/mL	BACTEC	inhibition			H37Rv	<90%
CN(C)c1ccc(/C=C/c2nc3ccc([N+](=O)[O-])cc3[nH]2)cc1		resazurin	MIC bound			H37Rv	>6.25 µg/mL
NC(=S)c1cncc(-n2cncn2)n1			MIC			Capreomycin-resistant	125 µg/mL
NNC(=O)c1cccc(Br)c1			MIC50			ATCC35801	29.5 µg/mL
COc1cccc(/C=N/NC(=O)C[N+](C)(C)C)c1OC		BACTEC	MIC bound			H37Rv	>12.5 µg/mL
S=C(Nc1ccccc1)Nc1ccc(-c2nnc(Nc3ccc(Cl)cc3)s2)cc1	6.25 µg/mL	BACTEC	inhibition			H37Rv	32%
O=C1CC(Nc2ccc(Oc3ccc(Cl)cc3)c(Cl)c2)C(=O)N1Cc1ccccc1			MIC			H37Rv	100 µg/mL
CCOC(=O)c1cc(NC(C)=O)cn1C	6.25 µg/mL	resazurin	inhibition			H37Rv	-3%
NC(=S)c1cncc(-n2ccnc2)n1			MIC			Ethionamide-resistant	500 µg/mL
[N-]=[N+]=NCCCCN1C(=O)C2(OCCO2)c2cc(Cl)ccc21			MIC99			MC2 6230	>311 µM
CSCCC(NC(=O)OC(C)(C)C)C(=O)O/N=C1\c2ccccc2-c2c1c(N1CCN(c3ccccn3)CC1)nc1ccc(Br)cc21		resazurin	MIC90			H37Rv	>6.25 µg/mL
O=C(Nc1nnc(-c2ccc([N+](=O)[O-])cc2)s1)C(=O)c1cccs1		visual reading	MIC			H37Rv	>200 µM
CCCCCCC(=O)O/N=C1\c2ccccc2-c2c1c(N1CCN(c3ccccn3)CC1)nc1ccc(Br)cc21		resazurin	MIC90			H37Rv	>6.25 µg/mL
CC=O.NC(N)=NCCCC(N)C(=O)N1CCCC1C(=O)N1CCCC1C(=O)NC(CCCN=C(N)N)C(=O)O		BACTEC	MIC bound			H37Rv	>12.5 µg/mL
CC(Cl)CC(=O)C(=O)Nc1nnc(-c2cccc([N+](=O)[O-])c2)s1		visual reading	MIC			H37Rv	>200 µM
CCOc1ccc2c(c1)n([O-])c1cc(Cl)ccc1[n+]2=O			MIC			TAC-R	3.1 µg/mL
CC[C@@H](CO)NCCN[C@@H](CC)CO			MIC				16 µg/mL
[N-]=[N+]=NCCCCCCN1C(=O)C(=O)c2cc(Cl)ccc21			MIC99			MC2 6230	163 µM
[Cl][Co][Cl]		resazurin	MIC			H37Rv	>105 µM
Cc1ccc(-c2cnnc(N3CCC(c4cccc(F)c4)C3)n2)o1		low oxygen	MIC			H37Rv-CV-lux-AB	47.9 µM
[N-]=[N+]=NCCCCCCCCN1C(=O)C2(OCCO2)c2cc(Cl)ccc21			MIC99			MC2 6230	137 µM
C[C@@H]1C[C@H]2CC[C@H](O2)[C@H](C)C(=O)O[C@@H](C)C[C@@H]2CC[C@@H](O2)[C@@H](C)C(=O)O[C@H](C)C[C@H]2CC[C@H](O2)[C@H](C)C(=O)O[C@@H](C)C[C@@H]2CC[C@@H](O2)[C@@H](C)C(=O)O1	12.8 µg/mL	BACTEC	inhibition			H37Rv	95%
Cn1nnnc1SCC1=C(C(=O)O)N2C(=O)[C@@H](NC(=O)[C@H](O)c3ccccc3)[C@H]2SC1	100 µg/mL		inhibition				0%
N=c1cc2c(cn1-c1ccc(C(=O)O)cc1)C(=O)c1ccccc1C2=O		luminescence	MIC	Lux		H37Rv	23.6 µM
Cc1ccc(NC(=O)C(F)(F)F)cc1F	12.5 µg/mL	BACTEC	inhibition			H37Rv	4%
N#Cc1cncc(-n2cncn2)n1			MIC			Ethionamide-resistant	500 µg/mL
[N-]=[N+]=NCCCCN1C(=O)C(=O)c2cc(Cl)ccc21			MIC99			MC2 6230	164 µM
O=C(O)c1ccc(N2C(=O)CC(Nc3ccc(Oc4ccc(Cl)cc4)c(Cl)c3)C2=O)cc1			MIC			H37Rv	>200 µg/mL
CC[N+](CC)=c1ccc2nc3c(cc(Nc4ccccc4)c4ccccc43)oc-2c1.[Cl-].[Cl][Zn][Cl]	128 µg/mL	BACTEC	inhibition			H37Rv	83%
CC1CCCCN1c1cncc(C(=O)NO)n1			MIC			SP 607	500 µg/mL
N=c1cc2c(cn1-c1ccc(Cl)cc1)C(=O)c1ccccc1C2=O		luminescence	MIC	Lux		H37Rv	1.16 µM
COC(=O)/C(=N\O)c1[nH]c2ccccc2c1[C@H]1SC[C@@H](O)C(c2ccc(O)c(OC)c2)(c2ncc[nH]2)S1	12.5 µg/mL		inhibition			H37Rv	10%
CC(C)CC(NC(=O)OC(C)(C)C)C(=O)O/N=C1\c2ccccc2-c2c1c(N1CCN(c3ccccn3)CC1)nc1ccc(Br)cc21		resazurin	MIC90			H37Rv	>6.25 µg/mL
CN[C@@H]1[C@H](O[C@H]2[C@H](O[C@H]3[C@H](O)[C@@H](O)[C@H](N=C(N)N)[C@@H](O)[C@@H]3N=C(N)N)O[C@@H](C)[C@]2(O)C=O)O[C@@H](CO)[C@H](O)[C@H]1O		visual reading / absorbance	MIC99	Streptomycin-resistant	14 d	Praha 1	16 µM
CC(=O)OC[C@@H](OC(C)=O)[C@H](/C=C/C=C/[N+](=O)[O-])OC(C)=O	25 µg/mL	agar	inhibition			H37Rv	inactive
CC(=O)C(NC(=O)C(C)C(O)C(C)NC(=O)C(NC(=O)c1nc(C(CC(N)=O)NCC(N)C(N)=O)nc(N)c1C)C(OC1OC(CO)C(O)C(O)C1(C)OC1OC(CO)C(O)C(O)(C(N)=O)C1O)c1cnc[nH]1)C(=O)NCCC1=NC(c2nc(C(N)=O)cs2)CS1			MIC			TAC-R	<0.002 µg/mL
CC(=O)NC(C)CCC[C@H](OC(C)=O)[C@@H](COC(C)=O)OC(C)=O	12.5 µg/mL	agar	inhibition			H37Rv	100%
N=c1cc2c(cn1-c1ccccc1Br)C(=O)c1ccccc1C2=O		luminescence	MIC	Lux		H37Rv	1.85 µM
COc1c(C)c(C)c2[nH]c3ccccc3c2c1OC		GFP	MIC			H37Ra	>50 µg/mL
NNC(=O)c1ccncc1		luminescence	MIC	Lux		H37Rv	0.18 µM
CC(CN(C)C)CN1c2ccccc2Sc2ccccc21	12.5 µg/mL	BACTEC	inhibition			H37Rv	30%
CN1C(=O)CC(Nc2ccc(Oc3ccc(Cl)cc3)c(Cl)c2)C1=O			MIC			H37Rv	100 µg/mL
CCCCCC[N+]1([O-])CC[N+]([O-])(CCCCCC)CC1	12.5 µg/mL	BACTEC	inhibition			H37Rv	0%
NCc1ccccc1CC(=O)N[C@@H]1C(=O)N2C(C(=O)O)=C(CSc3nnnn3CC(=O)O)CS[C@H]12	12.5 µg/mL	BACTEC	inhibition			65 isolates	40%
CC(C)(C)c1cc(C(C)(C)C)c2oc(-c3ccncc3)nc2c1	6.25 µg/mL	BACTEC	inhibition			H37Rv	100%
COc1ccc(N2C(=O)CC(Nc3ccc(Oc4ccc(Cl)cc4)c(Cl)c3)C2=O)cc1			MIC			H37Rv	100 µg/mL
CC(=O)/C(N=Nc1ccc(-c2nnc(Nc3ccccc3C)s2)cc1)=C(\C)O	6.25 µg/mL	BACTEC	inhibition			H37Rv	5%
CC(C)(C)c1cc(C(C)(C)C)c2oc(/C=C/c3ccccc3)nc2c1			MIC			H37Rv	>128 µg/mL
CC1=N/C(=C\c2ccc(N)cc2)C(=O)N1Nc1nnc(NN2C(=O)/C(=C\c3ccc(N)cc3)N=C2C)c2ccccc12	12.5 µg/mL	BACTEC	inhibition			H37Rv	95%
COc1c(C)c(C)c2[nH]c3ccc(Cc4c(C)c(OC)c(O)c5c4[nH]c4ccccc45)cc3c2c1O		GFP	MIC			H37Ra	>50 µg/mL
Cc1cccnc1Nc1nc(-c2ccccn2)c(Br)s1		fluorescence	EC90			H37Rv	<1 µM
CC1CCCCN1c1cncc(C(N)=S)n1			MIC			Capreomycin-resistant	62.5 µg/mL
CC(=O)OC[C@@H](OC(C)=O)[C@@H](/C=C/CC(C)[N+](=O)[O-])OC(C)=O	25 µg/mL	agar	inhibition			H37Rv	inactive
S=C(NCN1CCOCC1)c1cncc(-n2ccnc2)n1			MIC			Ethionamide-resistant	500 µg/mL
CC(=O)NCCCC[C@H](OC(C)=O)[C@@H](COC(C)=O)OC(C)=O	25 µg/mL	agar	inhibition			H37Rv	100%
CCN(CCO)Cc1c(-c2ccccc2)oc(-c2ccccc2)c1Cl	12.5 µg/mL	BACTEC	inhibition			H37Rv	93%
CCCCC[C@@H](C/C=C/CCC(=O)O)OC	6.25 µg/mL		inhibition				0%
NNC(=O)C(=O)NN			EC50				<0.25 µg/mL
N=c1cc2c(cn1-c1ccccc1Cl)C(=O)c1ccccc1C2=O		luminescence	MIC	Lux		H37Rv	3 µM
COc1ccc2c(c1)c(CC(=O)NN)c(C)n2C(=O)c1ccc(Cl)cc1	0.125 µg/mL		inhibition				60%
O=C1CC(Nc2ccc(Oc3ccc(Cl)cc3)c(Cl)c2)C(=O)N1c1cnc2ccccc2c1			MIC			H37Rv	100 µg/mL
CO/N=C(\C(=O)N[C@@H]1C(=O)N2C(C(=O)O)=CCS[C@H]12)c1csc(N)n1	100 µg/mL		inhibition				88%
Cc1ccc(-c2n[nH]c(=O)n2-n2c(C)ccc2C)cc1			MIC			11.146	5.16 µg/mL
CC(C)(C)c1cc(C(C)(C)C)c2oc(-c3ccco3)nc2c1	6.25 µg/mL	BACTEC	inhibition			H37Rv	<90%
C=C1C(=O)O[C@@H]2C[C@@H](C)[C@@H]3[C@@H](OC4OC(COC(C)=O)C(O)C(O)C4O)CC(=O)[C@@]3(C)C[C@H]12		BACTEC	MIC bound			H37Rv	≤12.8 µg/mL
Nc1ccc(-c2nnc(Nc3ccc([N+](=O)[O-])cc3)s2)cc1	6.25 µg/mL	BACTEC	inhibition			H37Rv	37%
CC1CCCCN1c1cncc(C(=O)NN)n1			MIC			Isoniazid-resistant	62.5 µg/mL
Cc1c2cc[n+](CCN3CCCCC3)cc2c(C)c2c1[nH]c1ccc(O)cc12		resazurin	MIC			H37Rv	1.56 µg/mL
CC(C)(C)c1cc(C(C)(C)C)c2oc(-c3ccc(C(F)(F)F)cc3)nc2c1	6.25 µg/mL	BACTEC	inhibition			H37Rv	<90%

The first 10 rows once more:

structure	dose	method	read-out	changes	setting	strain	result
CCCCOc1ccc(N2C(=O)CC(Nc3ccc(Oc4ccc(Cl)cc4)c(Cl)c3)C2=O)cc1			MIC			H37Rv	100 µg/mL
O=S(=O)(Nc1cc(Cl)c(NS(=O)(=O)c2ccccc2)c(S(=O)(=O)c2ccccc2)c1Cl)c1ccccc1		BACTEC	MIC			H37Rv	≥12.5 µg/mL
CCCCCCCCCCCCCC(=O)OC1(C)c2ccccc2-c2c1c(-n1ccnc1)nc1ccc(Br)cc21		resazurin	MIC90			H37Rv	>6.25 µg/mL
Cc1cccc(-c2nc3cc(C(C)(C)C)cc(C(C)(C)C)c3o2)c1	6.25 µg/mL	BACTEC	inhibition			H37Rv	<90%
CNP1(NC)=NP(NC)(NC)=NP(c2ccccc2)(c2ccccc2)=N1		BACTEC	MIC			H37Rv	≥128 µg/mL
Nc1ccc(-c2nnc(NCc3ccccc3)s2)cc1	6.25 µg/mL	BACTEC	inhibition			H37Rv	37%
CN[C@H]1Cc2c[nH]c3cccc(c23)[C@]12C=C(C)C(=O)O2	12.8 µg/mL	BACTEC	inhibition			H37Rv	0%
Cc1ncc(-c2c[nH]c3ccccc23)o1		GFP	MIC			H37Ra	25 µg/mL
S=C(Nc1ccccc1)Nc1ccc(-c2nnc(NC3CCCCC3)s2)cc1	6.25 µg/mL	BACTEC	inhibition			H37Rv	67%
[N-]=[N+]=NCCCCCCN1C(=O)C2(OCCO2)c2cc(Cl)ccc21			MIC99			MC2 6230	>286 µM